Experimental data reported in patent USRE43371E1 (priority 2004, dated 2012).

Assay: general procedure: solution-phase peptide synthesis; TFFH (fragment coupling); PyAOP (cyclisation)
Conditions: late stage modification step

Ph-NH—C(S)-MeLeu-Val-MeLeu-Ala-D-Ala-MeLeu-MeLeu-MeVal-MeBmt (OAc)-Abu-Sar-OMe
step yield: 90%
